Results of unrelated studies side by side (data: NIAID ChemDB).

Shared fields: tests in culture; agent: Aspergillus flavus; read-out: MIC

Neighbouring rows are from separate reports. An empty or dashed field is not shown.

structure	method	strain or isolate	value
CC(=O)N1CCC(n2cc(CN3CCc4sccc4C3)nn2)CC1	agar	NCIM 539	>200 µg/mL
c1ccc(-c2n[nH]c(CN3CCc4sccc4C3)n2)cc1	agar	NCIM 539	>200 µg/mL
c1ccc(-c2n[nH]c(-c3cn(C4CCNCC4)nn3)n2)cc1	agar	-	40 µg/mL
CCC(C)CC(C)CCCCCCCCC(=O)N[C@H]1C[C@@H](O)[C@H](NCCN)NC(=O)[C@@H]2[C@@H](O)CCN2C(=O)[C@H]([C@H](O)CCN)NC(=O)[C@H]([C@H](O)[C@@H](O)c2ccc(O)cc2)NC(=O)[C@@H]2C[C@@H](O)CN2C(=O)[C@H]([C@@H](C)O)NC1=O	broth dilution	ND255	0.06 µg/mL
C[C@H]1[C@H](O)[C@@H](C)/C=C/C=C/C=C/C=C/C=C/C=C/C=C/[C@H](O[C@@H]2O[C@H](C)[C@@H](O)[C@H](N)[C@@H]2O)C[C@@H]2O[C@](O)(C[C@@H](O)C[C@@H](O)CC[C@H](O)[C@@H](O)C[C@@H](O)CC(=O)O[C@H]1C)C[C@H](O)[C@H]2C(=O)O	broth dilution	64025	0.5 µg/mL
CC(=O)N1CCC(n2cc(-c3nc(-c4ccc(Cl)cc4)n[nH]3)nn2)CC1	agar	-	50 µg/mL
COc1ccc(Cc2nc(CN3CCc4sccc4C3)n[nH]2)cc1	agar	NCIM 539	37.5 µg/mL
COc1ccc(/C=c2\c(=O)[nH][nH]\c2=C2/C(=O)c3ccccc3N(C)C2=O)cc1	-	ATCC 28542	>100 µg/mL
CC(C)Cc1ccc(CC2=Cc3[nH][nH]c(=O)c3C(c3ccc(Br)cc3)C2)cc1	agar diffusion	-	50 µg/mL
C[C@H]1[C@H](O)[C@@H](C)/C=C/C=C/C=C/C=C/C=C/C=C/C=C/[C@H](O[C@@H]2O[C@H](C)[C@@H](O)[C@H](N)[C@@H]2O)C[C@@H]2O[C@](O)(C[C@@H](O)C[C@@H](O)CC[C@H](O)[C@@H](O)C[C@@H](O)CC(=O)O[C@H]1C)C[C@H](O)[C@H]2C(=O)O	XTT	Clinical isolate	2 µg/mL
O=c1[nH][nH]c2c1C(c1ccc(Br)cc1)CC(Cc1ccc3ccccc3c1)=C2	agar diffusion	-	50 µg/mL
Cc1nc2c(s1)C(=O)C(Nc1ccc(C)c(C)c1)=C(Cl)C2=O	broth dilution	KCCM 11899	6.3 µg/mL
Cc1cc(=O)n(-c2ccc(N=Cc3c(-c4c(O)c5ccccc5n(C)c4=O)[nH][nH]c3=O)cc2)n1C	-	ATCC 28542	>100 µg/mL
Nc1[nH]c(=O)ncc1F	broth dilution	-	6.3 µg/mL
Fc1ccc(Cc2nc(CN3CCc4sccc4C3)n[nH]2)cc1	agar	NCIM 539	15 µg/mL
C[C@@H](c1ncncc1F)[C@](O)(Cn1cncn1)c1ccc(F)cc1F	broth dilution	25	1 µg/mL
Cc1cc(=O)oc2cc(OCCCCCCn3cc(CN4CCCCC4)nn3)ccc12	agar diffusion	MTCC 277	12.5 µg/mL
C[C@H]1[C@H](O)[C@@H](C)/C=C/C=C/C=C/C=C/C=C/C=C/C=C/[C@H](O[C@@H]2O[C@H](C)[C@@H](O)[C@H](N)[C@@H]2O)C[C@@H]2O[C@](O)(C[C@@H](O)C[C@@H](O)CC[C@H](O)[C@@H](O)C[C@@H](O)CC(=O)O[C@H]1C)C[C@H](O)[C@H]2C(=O)O	absorbance	ATCC 11496	2 µg/mL
C[C@H]1[C@H](O)[C@@H](C)/C=C/C=C/C=C/C=C/C=C/C=C/C=C/[C@H](O[C@@H]2O[C@H](C)[C@@H](O)[C@H](N)[C@@H]2O)C[C@@H]2O[C@](O)(C[C@@H](O)C[C@@H](O)CC[C@H](O)[C@@H](O)C[C@@H](O)CC(=O)O[C@H]1C)C[C@H](O)[C@H]2C(=O)O	agar diffusion / agar	-	20 µg/mL
Cc1nc2c(s1)C(=O)C(Nc1cccc(F)c1)=C(Cl)C2=O	broth dilution	KCCM 11899	25 µg/mL
N=C(N)c1ccc(OCCCCCCOc2ccc(C(=N)N)cc2)cc1	agar diffusion / agar	-	19 µg/mL
C[C@H]1[C@H](O)[C@@H](C)/C=C/C=C/C=C/C=C/C=C/C=C/C=C/[C@H](O[C@@H]2O[C@H](C)[C@@H](O)[C@H](N)[C@@H]2O)C[C@@H]2O[C@](O)(C[C@@H](O)C[C@@H](O)CC[C@H](O)[C@@H](O)C[C@@H](O)CC(=O)O[C@H]1C)C[C@H](O)[C@H]2C(=O)O	broth dilution / agar	-	20 µg/mL
Cn1c(=O)c(-c2[nH][nH]c(=O)c2N=Nc2ccccc2Br)c(O)c2ccccc21	-	ATCC 28542	>100 µg/mL
C[C@H]1[C@H](O)[C@@H](C)/C=C/C=C/C=C/C=C/C=C/C=C/C=C/[C@H](O[C@@H]2O[C@H](C)[C@@H](O)[C@H](N)[C@@H]2O)C[C@@H]2O[C@](O)(C[C@@H](O)C[C@@H](O)CC[C@H](O)[C@@H](O)C[C@@H](O)CC(=O)O[C@H]1C)C[C@H](O)[C@H]2C(=O)O	broth dilution / resazurin	-	0.98 µg/mL
Cc1ccc(/C=c2\c(=O)[nH][nH]\c2=C2/C(=O)c3ccccc3N(C)C2=O)cc1	-	ATCC 28542	>100 µg/mL
O=c1[nH][nH]c2c1C(c1ccc(F)cc1)CC(Cc1ccc3ccccc3c1)=C2	agar diffusion	-	100 µg/mL
CS(=O)(=O)N1CCC(n2cc(-c3nc(-c4ccc([N+](=O)[O-])cc4)n[nH]3)nn2)CC1	agar	-	40 µg/mL
O=c1c(N2CCOCC2)c(N2CCN(S(=O)(=O)Cc3ccccc3)CC2)cnn1-c1ccccc1	broth dilution	ND255	3.13 µg/mL
Cn1c(=O)c(-c2[nH][nH]c(=O)c2C=Nc2ccccc2)c(O)c2ccccc21	-	ATCC 28542	>100 µg/mL
CN1CCC(n2cc(-c3nc(-c4ccccc4)n[nH]3)nn2)CC1	agar	-	30 µg/mL
COC(=O)c1c(N)oc2c1cc(O)c1sc(C)nc12	broth dilution	KCCM 11899	50 µg/mL
CC(=O)N1CCC(n2cc(-c3nc(-c4ccc(C)cc4)n[nH]3)nn2)CC1	agar	-	50 µg/mL
Clc1ccc(-c2n[nH]c(CN3CCc4sccc4C3)n2)cc1	agar	NCIM 539	75 µg/mL
Cn1c(=O)c(-c2[nH][nH]c(=O)c2N=Nc2ccc(Cl)cc2)c(O)c2ccccc21	-	ATCC 28542	>100 µg/mL
c1ccc(Cc2nc(CN3CCc4sccc4C3)n[nH]2)cc1	agar	NCIM 539	>200 µg/mL
Cc1nc2c(s1)C(=O)C(Nc1ccc(Cl)cc1)=C(Cl)C2=O	broth dilution	KCCM 11899	50 µg/mL